Pooled drug test results. Numbers come from NIAID ChemDB, via PubChem.

Common to all: target-level tests; organism: Hepatitis C virus; target: Nonstructural protein 5B; endpoint: inhibition

Percent inhibition refers to the dose given; in toxicity tests it is the harm to the cells. An empty or dashed field is not shown. Neighbouring rows are from separate reports.

| structure | strain | tested at | value |
|---|---|---|---|
| O=C(NCc1ccccn1)c1ccc(S(=O)(=O)Nc2ccc(N3CCOCC3)cc2)cc1 |  | 10 µg/mL | 98% |
| CSc1nc(Nc2ccc(N3CCOCC3)cc2)cc(N2CCN(CC(=O)N3CCCCC3)CC2)n1 |  | 1 µg/mL | 74% |
| CCOC(=O)C1=CN(N2CCN(c3nc(Nc4ccc5cn[nH]c5c4)nc(OC)n3)CC2)C(SC)N=C1 |  | 0.1 µg/mL | 0% |
| NS(=O)(=O)c1ccc(CCNc2cc(C(=O)Nc3ccc4cn[nH]c4c3)c(F)cc2F)cc1 |  | 1 µg/mL | 44% |
| CSc1nc(Nc2ccc(N3CCOCC3)cc2)cc(N2CCN(CC(=O)N3CCN(CCN4CCOCC4)CC3)CC2)n1 |  | 1 µg/mL | 63% |
| COc1nc(Nc2ccc3cn[nH]c3c2)nc(N2CCN(C)CC2)n1 |  | 0.1 µg/mL | 0% |
| O=C(Nc1ccc2[nH]ncc2c1)c1cc(NCCCn2ccnc2)c(F)cc1F |  | 1 µg/mL | 46% |
| COc1nc(Nc2ccc3[nH]ncc3c2)nc(N2CCC(O)CC2)n1 |  | 0.1 µg/mL | 0% |
| CN(C)CCNc1cc(C(=O)Nc2ccc3[nH]ncc3c2)c(F)cc1F |  | 1 µg/mL | 60% |
| CN(C)CCN(Cc1ccccc1)C(=O)c1ccc(S(=O)(=O)Nc2ccc(N3CCOCC3)cc2)cc1 |  | 0.01 µg/mL | 16% |
| COc1nc(NCCCn2ccnc2)nc(Nc2ccc3[nH]ncc3c2)n1 |  | 0.1 µg/mL | 43% |
| CSc1nc(Nc2ccc(N3CCOCC3)cc2)cc(N2CCN(CC(=O)N3CCOCC3)CC2)n1 |  | 1 µg/mL | 72% |
| Nc1ncc2ncn([C@@H]3CO[C@H](COP(=O)(O)OP(=O)(O)OP(=O)(O)O)O3)c2n1 |  | 100 µM | 44% |
| COc1nc(NCCO)nc(Nc2ccc3cn[nH]c3c2)n1 |  | 0.1 µg/mL | 37% |
| Nc1nc(=O)n([C@@H]2CO[C@H](COP(=O)(O)OP(=O)(O)OP(=O)(O)O)O2)cc1F |  | 100 µM | 81% |
| CCOC(=O)N1CCN(c2nc(Nc3ccc4[nH]ncc4c3)nc(OC)n2)CC1 |  | 1 µg/mL | 15% |
| Nc1ncn([C@H]2CO[C@@H](COP(=O)(O)OP(=O)(O)OP(=O)(O)O)O2)c(=O)n1 |  | 100 µM | 8% |
| O=C(c1ccc(S(=O)(=O)Nc2ccc(N3CCOCC3)cc2)cc1)N(Cc1ccccn1)Cc1ccccn1 |  | 0.1 µg/mL | 42% |
| O=C(Nc1ccc2[nH]ncc2c1)c1cc(NCCc2ccccn2)c(F)cc1F |  | 10 µg/mL | 75% |
| COc1nc(Nc2ccc3cn[nH]c3c2)nc(N2CCC(O)CC2)n1 |  | 0.1 µg/mL | 10% |
| Cc1cc(-c2ccccc2)nc(N2C(=O)CSC2c2c(Cl)cccc2Cl)n1 | NS5B | 250 µM | 76.3% |
| CCN(CC)CCN(C)C(=O)CN1CCN(c2cc(Nc3ccc(N4CCOCC4)cc3)nc(SC)n2)CC1 |  | 1 µg/mL | 74% |
| O=C(Nc1ccc2cn[nH]c2c1)c1cc(NCCc2ccccn2)c(F)cc1F |  | 10 µg/mL | 59% |
| Cc1cc(C(F)(F)F)nc(N2C(=O)CSC2c2c(Cl)cccc2Cl)n1 | NS5B | 250 µM | 75.6% |
| O=C(Nc1ccc2[nH]ncc2c1)c1cc(NCCN2CCCC2)c(F)cc1F |  | 10 µg/mL | 74% |
| Cc1cccc(N2C(=O)CSC2c2ccc(N(C)C)cc2)n1 | NS5B | 250 µM | 64.2% |
| CN(C)CCNc1cc(C(=O)Nc2ccc3cn[nH]c3c2)c(F)cc1F |  | 1 µg/mL | 28% |
| O=C1CSC(c2ccc(F)cc2)N1c1ccccn1 | NS5B | 250 µM | 68.7% |
| CCOC(=O)C1=CN(N2CCN(c3nc(Nc4ccc5[nH]ncc5c4)nc(OC)n3)CC2)C(SC)N=C1 |  | 1 µg/mL | 18% |
| O=C(NCCc1cccnc1)c1ccc(S(=O)(=O)Nc2ccc(N3CCOCC3)cc2)cc1 |  | 0.01 µg/mL | 25% |